Measurements from BindingDB's records for 25864869.

Protein sequences, listed by entry. Tags and fused reporters are not part of them.
UniProt Q8DP63, whole entry, looked up: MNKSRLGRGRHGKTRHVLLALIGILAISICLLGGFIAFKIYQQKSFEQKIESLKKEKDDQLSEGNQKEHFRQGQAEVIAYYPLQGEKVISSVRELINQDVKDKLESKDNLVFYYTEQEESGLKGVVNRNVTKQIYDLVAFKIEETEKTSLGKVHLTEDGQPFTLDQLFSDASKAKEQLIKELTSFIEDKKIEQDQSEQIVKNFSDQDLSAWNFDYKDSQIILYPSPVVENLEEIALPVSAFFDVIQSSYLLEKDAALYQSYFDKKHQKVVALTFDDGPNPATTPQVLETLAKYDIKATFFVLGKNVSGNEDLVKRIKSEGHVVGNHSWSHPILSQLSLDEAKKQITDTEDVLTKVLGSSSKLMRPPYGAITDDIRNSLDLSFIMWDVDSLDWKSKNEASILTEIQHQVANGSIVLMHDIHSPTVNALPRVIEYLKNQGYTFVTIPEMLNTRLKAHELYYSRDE

Target: Peptidoglycan-N-acetylglucosamine deacetylase (Streptococcus pneumoniae (strain ATCC BAA-255 / R6), UniProt Q8DP63)
Settings: pH 7

Compound | Ki [µM]
COC1[C@H](OCc2ccccc2)C(CO)O[C@@H](OC)[C@H]1NP(C)(=O)O (stereo not given in full) | 720
CP(=O)(O)N[C@H]1C(O)[C@H](O)C(COCc2ccccc2)O[C@H]1OCc1ccccc1 (stereo not given in full) | 220
CO[C@@H]1OC(CO)[C@@H](OCc2ccccc2)C(O)[C@@H]1NP(C)(=O)O (stereo not given in full) | 170
CO[C@@H]1OC(COCc2ccccc2)[C@@H](O)C(O)[C@@H]1NP(C)(=O)O (stereo not given in full) | 580
CP(=O)(O)N[C@H]1C(O)[C@H](OCc2ccccc2)C(CO)O[C@H]1OCc1ccccc1 (stereo not given in full) | 80
